Drawing on PubChem BioAssay AID1053175 (ICCB-Longwood Screening Facility, Harvard Medical School, 2014), this text covers OD600 absorbance for 3 molecules.

Only a part is listed here, and it is no random draw. The source made the active and inactive calls.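 How the source made its calls: active means OD600 absorbance below the run mean of sample wells minus 3.6 SD, in any replicate (cut at about 0.56 in these data); inactive means the rest.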

The experiment in a line: antibacterial activity against Escherichia coli – OD600, primary screen (AID 1053175). The conditions noted are these: Escherichia coli growth, OD600, 23 h; active compounds read low.
In the case of `O=[N+]([O-])c1cc([N+](=O)[O-])c(-c2ccn[nH]2)s1`, the OD600 absorbance is active: 0.366.
With `O=C(O)c1ccccc1[As](=O)(O)O`, the OD600 absorbance is active: 0.396.
For `O=c1c2cc([N+](=O)[O-])ccc2[nH]c2c([N+](=O)[O-])cc([N+](=O)[O-])cc12`, the OD600 absorbance is active: 0.449.
